Laboratory results from US20240262869A1.
Like-named read-outs stand apart in the source and are kept apart here.

Assays:
ACE2-hFc (human) [1] = biological target: ACE2-hFc (human) (UniProt Q9BYF1)
ACE2-hFc (human) [2] = biological target: ACE2-hFc (human) (UniProt Q9BYF1); remark: listed apart in the source
ACE2-hFc (human) [3] = biological target: ACE2-hFc (human) (UniProt Q9BYF1); remark: listed apart in the source
ACE2-hFc (human) [4] = biological target: ACE2-hFc (human) (UniProt Q9BYF1); assay: SPR, ACE2-hFc captured on Protein G

## mInCV02R (SARS CoV-2 RBD N-1) having EIS at the N-terminal (from UniProt P0DTC2 332-532) (ligand; other documents disagree on this pair)
ACE2-hFc (human) [1]
  Kd: 3.9 nM
ACE2-hFc (human) [2]
  Kd: 1.8 nM
ACE2-hFc (human) [3]
  Kd: 2.5 nM
ACE2-hFc (human) [4]
  Kd: 15 nM
